Results deposited as PubChem BioAssay AID1259414 (Drosophila RNAi Screening Center, 2018)

Assay: 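Host factors increasing or decreasing Wolbachia levels in cultured fly cells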 (primary screen)
System: Drosophila JW18 cells infected with Wolbachia
Knock-down reagent: long dsRNA against Drosophila genes, 0.25 µg dsRNA per well of a 384-well plate
Time to read-out: 5 days
Challenge: cells persistently infected with Wolbachia before knock-down; no added drug
Read-out: 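Automated imaging of bacterial rRNA staining divided by host cell count, reported as plate-normalised robust z-score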
Reading the numbers: Wolbachia per cell robust z: higher = more Wolbachia per host cell than the plate typical
Call rule: 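Hit when robust z is 1.5 or more, or -1.5 or less, in at least two of three replicates; excludes dsRNAs with several or no targets, genes not expressed in JW18 and well A1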
The deposit covers about 24,000 reagents; this is a random part of those with a known target gene and a result. Of all reagents, about 1,210 (5%) got an active call. 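Inactive calls also include excluded dsRNAs with several or no targets, genes unexpressed in JW18, and well A1, regardless of score.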 A number with no mark means an inactive call. Names joined by + are all predicted targets of the reagent.

CG13526 [SID104183960] → Wolbachia per cell robust z, rep 1: -0.465; Wolbachia per cell robust z, rep 2: -0.0682; Wolbachia per cell robust z, rep 3: 0.587
bs [SID104202425] → Wolbachia per cell robust z, rep 1: 0.142; Wolbachia per cell robust z, rep 2: 0.0587; Wolbachia per cell robust z, rep 3: 0.894
bs [SID104204487] → Wolbachia per cell robust z, rep 1: 0.724; Wolbachia per cell robust z, rep 2: 0.332; Wolbachia per cell robust z, rep 3: 0.587
PIP4K [SID104197005] → Wolbachia per cell robust z, rep 1: 0.626; Wolbachia per cell robust z, rep 2: -6.44; Wolbachia per cell robust z, rep 3: -0.0595
CG10702 [SID104181889] → Wolbachia per cell robust z, rep 1: 0.961; Wolbachia per cell robust z, rep 2: 0.738; Wolbachia per cell robust z, rep 3: 0.546
CG7335 [SID104190608] → Wolbachia per cell robust z, rep 1: -0.408; Wolbachia per cell robust z, rep 2: 0.396; Wolbachia per cell robust z, rep 3: -1.84
CG7335 [SID104204858] → Wolbachia per cell robust z, rep 1: -0.347; Wolbachia per cell robust z, rep 2: -1.22; Wolbachia per cell robust z, rep 3: 0.198
CG7335 [SID104219129] → Wolbachia per cell robust z, rep 1: -0.258; Wolbachia per cell robust z, rep 2: 0.196; Wolbachia per cell robust z, rep 3: -0.599
Kdm2 [SID104194078] → Wolbachia per cell robust z, rep 1: -3.4 (active); Wolbachia per cell robust z, rep 2: -2.52; Wolbachia per cell robust z, rep 3: 0.954
CG5973 [SID104182710] → Wolbachia per cell robust z, rep 1: -0.824; Wolbachia per cell robust z, rep 2: 0.51; Wolbachia per cell robust z, rep 3: 0.0984
pns [SID104188390] → Wolbachia per cell robust z, rep 1: 0.419; Wolbachia per cell robust z, rep 2: -0.111; Wolbachia per cell robust z, rep 3: -2.22
Indy [SID104190185] → Wolbachia per cell robust z, rep 1: -2.2; Wolbachia per cell robust z, rep 2: 0.837; Wolbachia per cell robust z, rep 3: -0.849
Indy [SID104218422] → Wolbachia per cell robust z, rep 1: -0.685; Wolbachia per cell robust z, rep 2: -1.01; Wolbachia per cell robust z, rep 3: -2.62
CG42245 + MEP-1 [SID104187785] → Wolbachia per cell robust z, rep 1: 0.203; Wolbachia per cell robust z, rep 2: -0.327; Wolbachia per cell robust z, rep 3: 0.885
CG42245 + MEP-1 [SID104188066] → Wolbachia per cell robust z, rep 1: 0.729; Wolbachia per cell robust z, rep 2: -0.781; Wolbachia per cell robust z, rep 3: 1.7
CG42245 + MEP-1 [SID104207906] → Wolbachia per cell robust z, rep 1: 0.539; Wolbachia per cell robust z, rep 2: 1.64; Wolbachia per cell robust z, rep 3: 2.35
CG5756 [SID104186742] → Wolbachia per cell robust z, rep 1: 0.000411; Wolbachia per cell robust z, rep 2: -0.156; Wolbachia per cell robust z, rep 3: -0.22
CG5756 [SID104206789] → Wolbachia per cell robust z, rep 1: -0.0278; Wolbachia per cell robust z, rep 2: -0.164; Wolbachia per cell robust z, rep 3: -0.232
SmydA-6 [SID104187133] → Wolbachia per cell robust z, rep 1: 0.266; Wolbachia per cell robust z, rep 2: 0.658; Wolbachia per cell robust z, rep 3: 0.134
Lcp65Ag2 [SID104218821] → Wolbachia per cell robust z, rep 1: -0.426; Wolbachia per cell robust z, rep 2: -1.37; Wolbachia per cell robust z, rep 3: -1.9
CG15306 [SID104197785] → Wolbachia per cell robust z, rep 1: 0.539; Wolbachia per cell robust z, rep 2: -4.96; Wolbachia per cell robust z, rep 3: 0.409
CG15306 [SID104198032] → Wolbachia per cell robust z, rep 1: -1.04; Wolbachia per cell robust z, rep 2: -1.57; Wolbachia per cell robust z, rep 3: -0.185
CG15306 [SID104208516] → Wolbachia per cell robust z, rep 1: 0.216; Wolbachia per cell robust z, rep 2: 0.936; Wolbachia per cell robust z, rep 3: -0.142
CG10366 [SID104181838] → Wolbachia per cell robust z, rep 1: -1.23; Wolbachia per cell robust z, rep 2: -1.09; Wolbachia per cell robust z, rep 3: -0.889
CG10366 [SID104205007] → Wolbachia per cell robust z, rep 1: -0.927; Wolbachia per cell robust z, rep 2: -1.6; Wolbachia per cell robust z, rep 3: -0.148
CG31807 [SID104181342] → Wolbachia per cell robust z, rep 1: 0.421; Wolbachia per cell robust z, rep 2: -0.769; Wolbachia per cell robust z, rep 3: -9.16
CG7879 [SID104188392] → Wolbachia per cell robust z, rep 1: -0.149; Wolbachia per cell robust z, rep 2: -1.81; Wolbachia per cell robust z, rep 3: 0.0633
CG7879 [SID104203854] → Wolbachia per cell robust z, rep 1: 0.0377; Wolbachia per cell robust z, rep 2: 0.198; Wolbachia per cell robust z, rep 3: 0.728
CG7309 [SID104182837] → Wolbachia per cell robust z, rep 1: 1.37; Wolbachia per cell robust z, rep 2: 0.469; Wolbachia per cell robust z, rep 3: 1.51
CG7309 [SID104205796] → Wolbachia per cell robust z, rep 1: -0.654; Wolbachia per cell robust z, rep 2: 0.85; Wolbachia per cell robust z, rep 3: 0.809

Sorted by “Wolbachia per cell robust z, rep 2” (descending): some entries from above
CG42245 + MEP-1 [SID104207906] → Wolbachia per cell robust z, rep 1: 0.539; Wolbachia per cell robust z, rep 2: 1.64; Wolbachia per cell robust z, rep 3: 2.35
CG5756 [SID104186742] → Wolbachia per cell robust z, rep 1: 0.000411; Wolbachia per cell robust z, rep 2: -0.156; Wolbachia per cell robust z, rep 3: -0.22
CG5756 [SID104206789] → Wolbachia per cell robust z, rep 1: -0.0278; Wolbachia per cell robust z, rep 2: -0.164; Wolbachia per cell robust z, rep 3: -0.232
